Structures can show the parent of a compound that is named as a salt. Where two headings read alike, the source gives them in different places.
Columns and labels:
[1] = tested on: SARS-CoV-2; format: cell-based
[2] = tested on: SARS-CoV-2; format: cell-based; remark: listed apart in the source
[3] = selectivity index, uninfected Calu-3 CC50 vs Calu-3 SARS-CoV-2 EC50
[4] = selectivity index, uninfected HeLa-ACE2 CC50 vs HeLa-ACE2 SARS-CoV-2 EC50
[5] = selectivity index, uninfected Calu-3 CC50 / Calu-3 SARS-CoV-2 EC50
[6] = selectivity index, uninfected HeLa-ACE2 CC50 / HeLa-ACE2 SARS-CoV-2 EC50

## Oc1nccc2cc(OC3CCNCC3)ccc12 [SAR-407899]
[1]; [3]
  Calu-3 SI: > 7.77
[2]; [4]
  HeLa-ACE2 SI: 4.03

## O=C(Nc1ccc(Cl)c(S(=O)(=O)N2CCNCC2)c1O)Nc1cccc(F)c1Cl [Elubrixin tosylate]
[1]; [3]
  Calu-3 SI: > 4.28

## NS(=O)(=O)c1ccc(N2N=C(C(F)(F)F)CC2c2c[nH]c3c(Cl)cccc23)cc1 (stereo not shown) [ON-09310]
[1]; [5]
  Calu-3 SI: 9.34
[2]; [6]
  HeLa-ACE2 SI: 2.20

## Cc1cccc(/C=N/Nc2cc(N3CCOCC3)nc(OCCc3ccccn3)n2)c1 [Apilimod - control]
[2]; selectivity index, uninfected HeLa-ACE2 CC50 / SARS-CoV-2 EC50
  HeLa-ACE2 SI: > 1018.85

## O=c1[nH]c2ccc(C(F)(F)F)cc2c(-c2cc(Cl)ccc2O)c1CCO [BMS-223131]
[1]; [3]
  Calu-3 SI: > 5.81
[2]; [4]
  HeLa-ACE2 SI: 2.23

## CCOc1ccc(Cc2nc3cc(N(C)S(=O)(=O)c4cccs4)ccc3n2CC2CCCCC2)nc1 [AZ-11713908]
[1]; ratio CC50 / EC50
  Calu-3 SI: > 8.45
[2]
  HeLa-ACE2 SI: 3.44

## O[C@@H]1CO[C@H]2[C@@H]1OC[C@H]2Oc1nc2nc(-c3ccc(-c4ccccc4)cc3)c(Cl)cc2[nH]1 [MK-8722]
[1]; [3]
  Calu-3 SI: > 10.93
[2]; [4]
  HeLa-ACE2 SI: 3.90

## Cn1c(C#N)ccc1-c1ccc2c(c1)C(C)(C)OC(=S)N2 [Tanaproget]
[1]; [5]
  Calu-3 SI: > 7.90
[2]; [6]
  HeLa-ACE2 SI: 0.91

## C=Cc1cc(C(=O)Nc2ccc(C(=N)N)cc2)c(-c2ccc(C(=O)NCC3CC3)nc2C(=O)O)cc1OC [Avoralstat]
[1]; ratio CC50 / EC50
  Calu-3 SI: > 77.16

## CC(=O)O[C@H]1C[C@H](O[C@H]2[C@@H](O)C[C@H](O[C@H]3[C@@H](O)C[C@H](O[C@H]4CC[C@@]5(C)[C@H](CC[C@@H]6[C@@H]5C[C@@H](O)[C@]5(C)[C@@H](C7=CC(=O)OC7)CC[C@]65O)C4)O[C@@H]3C)O[C@@H]2C)O[C@H](C)[C@H]1O[C@@H]1O[C@H](CO)[C@@H](O)[C@H](O)[C@H]1O [Lanatoside C]
[1]; ratio CC50 / EC50
  Calu-3 SI: > 31.97
[2]
  HeLa-ACE2 SI: 6.56

## CO[C@H]1C[C@H](O[C@H]2CC[C@]3(C=O)[C@H]4CC[C@]5(C)[C@@H](C6=CC(=O)OC6)CC[C@]5(O)[C@@H]4CC[C@]3(O)C2)O[C@H](C)[C@H]1O [Cymarine]
[1]; ratio CC50 / EC50
  Calu-3 SI: > 43.54
[2]
  HeLa-ACE2 SI: 1.21

## CC[C@H]1CN2CCc3cc(OC)c(OC)cc3[C@@H]2C[C@@H]1C[C@H]1NCCc2cc(OC)c(OC)cc21 [Emetine]
[1]; ratio CC50 / EC50
  Calu-3 SI: > 19.97
[2]
  HeLa-ACE2 SI: 5.66

## CC/C(=C(/c1ccc(/C=C/C(=O)O)cc1)c1ccc2[nH]ncc2c1)c1ccc(F)cc1Cl [ARN-810]
[1]; [3]
  Calu-3 SI: > 21.61
[2]; [4]
  HeLa-ACE2 SI: 1.14

## C=C(C)[C@]12C[C@@H](C)[C@@]34O[C@](Cc5ccccc5)(O[C@@H]1[C@@H]3C=C(COC(=O)Cc1ccc(O)c(OC)c1)C[C@]1(O)C(=O)C(C)=C[C@@H]41)O2 [Resiniferatoxin]
[1]; ratio CC50 / EC50
  Calu-3 SI: 19.13
[2]
  HeLa-ACE2 SI: 5.53

## CCc1ccc(C2=CC(C)(C)Sc3ccc(C#Cc4ccc(C(=O)O)cc4)cc32)cc1 [AGN-194310]
[1]; [5]
  Calu-3 SI: > 50.05

## CCCCCCCC/C=C/CCCCCCCC(=O)OC[C@H]1O[C@@H](n2ccc(N)nc2=O)C(F)(F)[C@@H]1O [Gemcitabine elaidate]
[1]; [5]
  Calu-3 SI: > 92.27
[2]; [6]
  HeLa-ACE2 SI: 0.000607

## C[C@@H]1C[C@@H]([C@H](O)CC2CC(=O)NC(=O)C2)C(=O)[C@@H](C)C1 [Cycloheximide]
[1]; ratio CC50 / EC50
  Calu-3 SI: > 12.51
[2]
  HeLa-ACE2 SI: 2.32

## Deazaneplanocin A
[1]; ratio CC50 / EC50
  Calu-3 SI: > 182.13

## CCCCCC[C@H]1C(=O)O[C@H](C)[C@H](NC(=O)c2cccc(NC=O)c2O)C(=O)O[C@@H](C)[C@@H]1OC(=O)CC(C)C [Antimycin A]
[1]; ratio CC50 / EC50
  Calu-3 SI: > 20.81

## N=C(N)c1ccc2cc(OC(=O)c3ccc(CNC(=O)CCCC(=O)O)o3)ccc2c1 [TO-195]
[1]; [3]
  Calu-3 SI: > 45.45
[2]; [4]
  HeLa-ACE2 SI: 6.20

## C[C@]12O[C@H](C[C@]1(O)CO)n1c3ccccc3c3c4c(c5c6ccccc6n2c5c31)CNC4=O [Lestaurtinib]
[1]; ratio CC50 / EC50
  Calu-3 SI: > 29.86
[2]
  HeLa-ACE2 SI: 1.39

## COC(=O)[C@@]12OC[C@]34[C@H]([C@@H](O)[C@@H]1O)[C@@]1(C)CC(=O)C(O)=C(C)[C@@H]1C[C@H]3OC(=O)[C@H](OC(=O)/C=C(\C)C(C)C)[C@@H]24 [Bruceantin]
[1]; ratio CC50 / EC50
  Calu-3 SI: 49.86
[2]
  HeLa-ACE2 SI: < 20.18

## COCc1c(C(C)C)nc(C(C)C)c(/C=C/[C@@H](O)C[C@@H](O)CC(=O)O)c1-c1ccc(F)cc1 [Cerivastatin sodium]
[1]; [5]
  Calu-3 SI: > 85.72
[2]; [6]
  HeLa-ACE2 SI: 0.0321

## N#Cc1cccc(C(C(=O)NCC(c2ccccc2)c2ccccc2)N(CCc2c[nH]cn2)C(=O)c2ccccc2C(=O)c2ccccc2)c1 (stereo not shown) [GENZ-29155]
[1]; [3]
  Calu-3 SI: > 6.41
[2]; [4]
  HeLa-ACE2 SI: 4.01

## CN(C)C(C(=O)Nc1ccc2c(=O)[nH]ccc2c1)c1ccsc1 (stereo not shown) [Verosudil]
[1]; [3]
  Calu-3 SI: > 5.39

## N=C(N)Nc1ncc(Cl)c2ccc(-c3cccc(C(=O)O)c3)cc12 [UK-356202]
[1]; [3]
  Calu-3 SI: > 15.59

## N=C(N)Nc1ccc(C(=O)Oc2ccc(S(N)(=O)=O)cc2)cc1 [Ono-3307]
[1]; [3]
  Calu-3 SI: > 18.64

## CSc1ccc(CN2CCCC(Nc3ccc4[nH]ncc4c3)C2)cc1 (stereo not shown) [INS-117548]
[1]; [3]
  Calu-3 SI: > 8.42

## Antimycin A3
[1]; ratio CC50 / EC50
  Calu-3 SI: > 110.21

## CN(C)C(=O)COC(=O)Cc1ccc(OC(=O)c2ccc(NC(=N)N)cc2)cc1 [Camostat mesylate]
[1]; [5]
  Calu-3 SI: > 556.36

## CC(=N)N1CCC(Oc2ccc(N(Cc3ccc4ccc(C(=N)N)cc4c3)S(=O)(=O)CC(=O)O)cc2)CC1 [YM 60828]
[1]; [3]
  Calu-3 SI: > 9.40

## CC[C@H]1CN2CCc3cc(OC)c(OC)cc3[C@@H]2C[C@@H]1C[C@H]1NCCc2cc(O)c(OC)cc21 [Cephaeline]
[1]; ratio CC50 / EC50
  Calu-3 SI: > 34.90
[2]
  HeLa-ACE2 SI: 12.66

## N=C(N)c1ccc2cc(OC(=O)c3ccc(N=C(N)N)cc3)ccc2c1 [Nafamostat mesylate]
[1]; ratio CC50 / EC50
  Calu-3 SI: > 1230.37

## CC[C@@H]1/C=C/C=C/C[C@H](C)[C@@H](O)[C@](C)(O)C(=O)[C@H](C)[C@@H](O)[C@H](C)C(=O)[C@H](C)[C@@H](O)[C@H](C)/C=C/C(=O)O[C@H]2[C@@H](C)[C@@H](CC1)O[C@]1(O[C@H](C[C@H](C)O)[C@H](C)CC1=O)[C@@H]2C [Oligomycin B]
[1]; ratio CC50 / EC50
  Calu-3 SI: > 4376.07

## CCN(CC)CCCNc1nccc2c(C)c3[nH]c4ccc(O)cc4c3c(C)c12 [SR-26050]
[1]; [5]
  Calu-3 SI: 11.60
[2]; [6]
  HeLa-ACE2 SI: 1.68

## CCCCCCCCCCCCCC(=O)O[C@@H]1[C@@H](C)[C@@]2(O)[C@@H](C=C(CO)C[C@]3(O)C(=O)C(C)=C[C@@H]23)[C@@H]2C(C)(C)[C@]12OC(C)=O [Phorbol 12-myristate 13-acetate]
[1]; ratio CC50 / EC50
  Calu-3 SI: 1396.04
[2]
  HeLa-ACE2 SI: > 2.89

## Mitoguazone
[1]; ratio CC50 / EC50
  Calu-3 SI: > 66.95

## CNC(=O)n1ccc2cc(Oc3ccnc(NC(=O)c4ccc(C5CCN(CCO)CC5)cc4)c3)c(OCCOC)cc21 [E-7090]
[1]; [5]
  Calu-3 SI: 19.87
[2]; [6]
  HeLa-ACE2 SI: 8.01

## CC(C)(C)c1ccc(CSc2cnn(C(C)(C)C)c(=O)c2Cl)cc1 [Pyridaben]
[1]; ratio CC50 / EC50
  Calu-3 SI: > 43.94

## CC(=O)N1C[C@H](O)C[C@H]1C(=O)N[C@@H](CCCNC(=N)N)C(=O)c1nc2ccccc2s1 [RWJ-56423]
[1]; [3]
  Calu-3 SI: > 24.33

## COC(=O)[C@]12CCC(C)(C)C[C@H]1[C@H]1C(=O)C=C3[C@@]4(C)C=C(C#N)C(=O)C(C)(C)[C@@H]4CC[C@@]3(C)[C@]1(C)CC2 [Bardoxolone methyl]
[1]; [5]
  Calu-3 SI: 38.51
[2]; [6]
  HeLa-ACE2 SI: 5.73
